Reference: PubChem BioAssay AID1251 (SRMLSC, 2008)
This is a selection; strong and weak results do not stand in their true shares. Active and inactive are the calls of the source. Rule as the data show it: active = inhibition above about 30%; inactive = the rest, inconclusive results apart.

Test: antivirals against arbovirus infection, primary screen, cell-based, full library, 10K replicate subset (AID 1251)
Details: arbovirus infection cell-based antiviral screen; at 10 µM; stronger effect = higher value

Compound	inhibition
COc1ccccc1OP(C)(=O)Nc1cc(Cl)ccc1C (stereo not given)	inactive: -12.5%
CC(C)NC(=O)NP(=O)(Oc1ccccc1)Oc1ccccc1	inactive: 1.34%
CCN(CC)C(=S)SC(NC=O)C(Cl)(Cl)Cl (stereo not given)	inactive: 4.1%
COc1ccc(OP(C)(=O)Nc2cccc(F)c2)cc1 (stereo not given)	inactive: 6.82%
O=[N+]([O-])c1cc([N+](=O)[O-])c(-c2ccn[nH]2)s1	inactive: -32.1%
Cc1cc(C)cc(OP(C)(N)=O)c1 (stereo not given)	inactive: 8.34%
CCOC(=O)c1ccc(NP(C)(=O)Oc2ccccc2)cc1 (stereo not given)	inactive: 2.45%
ClCCSc1nnc(-c2cccnc2)o1	inactive: 1.89%
COc1ccccc1OP(C)(=O)Nc1ccc(C)cc1 (stereo not given)	inactive: 5.9%
Cc1ccc(NP(C)(=O)Oc2ccccc2)c(C)c1 (stereo not given)	inactive: 4.19%
CC(C)(C)c1ccc(OP(C)(=O)Nc2ccc(SC(F)(F)F)cc2)cc1 (stereo not given)	inactive: -26.1%
Cc1cccc(C)c1OP(C)(N)=O (stereo not given)	inactive: 7.1%
O=[N+]([O-])c1ccc2c(c1)C=Nc1ccccc1O2	inactive: 6.74%
Cc1ccc2nc3c(c(C)c2c1)CC(C(Cl)Cl)S3 (stereo not given)	inactive: 6.99%
COc1ccc(N/C(=N/P(=O)(N2CCOCC2)N2CCOCC2)N2CCOCC2)cc1	inactive: 13.5%
COc1ccc2nc(NP(=O)(c3ccccc3)c3ccccc3)sc2c1	inactive: 16.7%
Cc1c2c(nc3ccccc13)SC(C(Cl)Cl)C2 (stereo not given)	inactive: 13.2%
O=C(OC1CN2CCC1CC2)C12CC3CC(CC(C3)C1)C2 (stereo not given)	inactive: -4.09%
Cc1cc(=O)[nH]c(N[N+](=O)[O-])n1	inactive: 11.1%
CCN(CC)CCCOC(=O)C(O)(c1ccccc1)c1ccccc1	inactive: 2.88%
CCC(C)N(CC(C)C)C(=S)SC(NC(C)=O)C(Cl)(Cl)Cl (stereo not given)	inactive: -12.7%
CP(=O)(Nc1ccccn1)Oc1ccc(Cl)cc1 (stereo not given)	inactive: 3.08%

Compound	inhibition
CCOP(C)(=S)SCC(=O)NC(C)C(=O)O (stereo not given)	inactive: 5.16%
CCOC(=O)c1ccc(NP(C)(=O)Oc2ccc(OC)cc2)cc1 (stereo not given)	inactive: -5.3%
O=C(COc1ccccc1)OC1CN2CCC1CC2 (stereo not given)	inactive: 12.7%
CP(=O)(NC(=O)Nc1ccccc1)Oc1ccccc1 (stereo not given)	inactive: 8.49%
Cc1cc(C)cc(OP(C)(=O)Nc2ccc(SC(F)(F)F)cc2)c1 (stereo not given)	inactive: 12.4%
COP1(=S)c2c(C)nn(CCC#N)c2N=C(c2ccc(F)cc2)N1C (stereo not given)	inactive: 4.95%
Cc1cccc(C)c1OP(C)(=O)Nc1ccc(SC(F)(F)F)cc1 (stereo not given)	inactive: -11.4%
CP(=O)(Oc1ccccc1)OC(c1ccccc1)C(F)(F)F (stereo not given)	inactive: 5.68%
O=P(Nc1ccccn1)(c1cccc2ccccc12)c1cccc2ccccc12	inactive: 10%
Cc1cc(SC(NC=O)C(Cl)(Cl)Cl)ncn1 (stereo not given)	inactive: 3.82%
COc1ccccc1OP(C)(=O)Nc1ccccc1 (stereo not given)	inactive: -2.41%
CP(=O)(Nc1ccccc1Br)Oc1ccccc1 (stereo not given)	inactive: 6.98%
CP(=S)(Nn1cnnc1)Oc1ccccc1 (stereo not given)	inactive: 8.87%
Cc1cc(SC(NC(=O)c2ccccc2)C(Cl)(Cl)Cl)nc(C(C)C)n1 (stereo not given)	inactive: -7.52%
CCCOc1ccc(NP(C)(=O)Oc2ccc(Cl)cc2)cc1 (stereo not given)	inactive: 6.78%
CP(=O)(Nc1ccc(SC(F)(F)F)cc1)Oc1ccccc1 (stereo not given)	inactive: -2.07%
Cc1ccc(OCC(=O)OC2CN3CCC2CC3)cc1 (stereo not given)	inactive: 4.68%
O=P1(Nc2ccc(Br)cn2)COc2ccccc2OC1	inactive: -1.2%
COc1ccccc1OP(C)(=O)Nc1c(C)cccc1C (stereo not given)	inactive: 12.4%
CN1CCCCC1COC(=O)C1(O)c2ccccc2CCc2ccccc21 (stereo not given)	inactive: -3.96%
O=P1(Nc2ncccn2)COc2ccccc2OC1	inactive: 2.94%
CN(C)C1(CNC(=O)c2ccc(S(C)(=O)=O)cc2)CCCCC1	inactive: -1.19%

Compound	inhibition
Cc1nn(-c2ccccc2)c2c1P(=O)(N1CCOCC1)N(C)C(c1ccccc1)=N2 (stereo not given)	inactive: 2.02%
CC1CCC(C(C)C)C(OP(=O)(Nc2ccccn2)c2ccccc2)C1 (stereo not given)	inactive: -7.22%
COc1cc(C2NCCC3(OCCO3)C2(C)C)cc(OC)c1OC.O=[N+]([O-])c1cc([N+](=O)[O-])c(O)c([N+](=O)[O-])c1 (stereo not given)	inactive: 10.4%
CC(C)/C=N\N=C(\N)N[N+](=O)[O-]	inactive: 10.2%
CN(C(=O)Cc1ccc(Cl)c(Cl)c1)[C@@H]1CCCC[C@H]1N1CCCC1	inactive: -7.85%
Cc1nc2ccc3ccccc3c2s1.O=[N+]([O-])c1cc([N+](=O)[O-])c(O)c([N+](=O)[O-])c1	inactive: 7.93%
Clc1n[nH]nc1-c1nn[nH][15n]1	inactive: -3.78%
O=P1(Nc2ccccn2)COc2ccccc2OC1	inactive: -5.13%
O=[N+]([O-])c1cc([N+](=O)[O-])c(-n2nnc3ccccc32)c([N+](=O)[O-])c1	inactive: 3.55%
CCOP(=O)(Nc1cccc2ccccc12)OCC	inactive: -7.75%
Cc1cc(C)cc(OP(C)(=O)Nc2ccccn2)c1 (stereo not given)	inactive: 1.39%
CP(=O)(Nc1cccc(Br)c1)Oc1ccccc1 (stereo not given)	inactive: 1.02%
Cc1ccc(NCCc2c([N+](=O)[O-])cc([N+](=O)[O-])cc2[N+](=O)[O-])cc1	inactive: -4.25%
Cc1ccc(C)c(NP(C)(=O)Oc2ccccc2)c1 (stereo not given)	inactive: 9.93%
Cc1cccc(OCC(=O)OC2CN3CCC2CC3)c1 (stereo not given)	inactive: 5.43%
Cc1cc(C)cc(OP(C)(=O)Nc2ccc(C)cc2C)c1 (stereo not given)	inactive: -6.44%
CCOC(=O)c1ccc(NP(C)(=O)Oc2cc(C)cc(C)c2)cc1 (stereo not given)	inactive: -16.7%
COc1cc(C(=O)NCC2(N3CCOCC3)CCCCC2)cc(Cl)c1OC(C)C	inactive: 9.93%
CCOP1(=S)c2c(C)nn(CCC#N)c2N=C(c2ccc(F)cc2)N1C (stereo not given)	inactive: -8.47%
O=[N+]([O-])c1ccc2c(c1)nnn2O	inactive: 4.81%
CC1=NCCc2c1[nH]c1ccccc21.O=[N+]([O-])c1cc([N+](=O)[O-])c(O)c([N+](=O)[O-])c1	inactive: 17.6%
